The values below come from patent US9944598B2, “Mono- or di-substituted indole derivatives as dengue viral replication inhibitors” (priority 2014, dated 2018).

Format in all cases: cell-based, Dengue virus
One data set deals with DENV-4 strain H241. The data set is described as follows: Tetravalent RT-qPCR assay Protocol A, serotype 4 H241. The method, then: (§1) The antiviral activity of the compounds of the invention was tested against DENV-1 strain TC974#666 (NCPV), DENV-2 strain 16681, DENV-3 strain H87 (NCPV) and DENV-4 strains H241 (NCPV) and EDEN (SG/06K2270DK1/2005; GenBank accession number QG398256) in a RT-qPCR assay. Therefore, Vero cells were infected with either DENV-1, or -2, or -3, or -4 in the presence or absence of test compounds. At day 3 post-infection, the cells were lysed and cell lysates were used to prepare cDNA of both a viral target (the 3′UTR of DENV; table 2) and a cellular reference gene (β-actin, table 2). Subsequently, a duplex real time PCR was performed on a Lightcycler480 instrument. The generated Cp value is inversely proportional to the amount of RNA expression of these targets. Inhibition of DENV replication by a test compound result in a shift of Cp's for the 3′UTR gene. On the other hand, if a test compound is toxic to the cells, a similar effect on β-actin expression will be observed. The comparative ΔΔCp method is used to calculate EC50, which is based on the relative gene expression of the target gene (3′UTR) normalized with the cellular housekeeping gene (β-actin). In addition, CC50 values were determined based on the Cp values acquired for the housekeeping gene β-actin.
(§2) The culture medium consisted of minimal essential medium supplemented with 2% of heat-inactivated fetal calf serum, 0.04% gentamycin (50 mg/mL) and 2 mM of L-glutamine. Vero cells, obtained from ECACC, were suspended in culture medium and 75 μL/well was added in 96-well plates (10000 cells/well), which already contain the antiviral compounds. Typically, these plates contain a 4-fold serial dilution of 9 dilution steps of the test compound at 200 times the final concentration in 100% DMSO (500 nL; final concentration range: 25 μM-0.00038 μM). In addition, each plate contains wells which are assigned as virus controls (containing cells and virus in the absence of compound) and cell controls (containing cells in the absence of virus and compound). Once the cells were added in the plates, the plates were incubated in a fully humidified incubator (37° C., 5% CO2) until the next day. Then, DENV-1 strain TC974#666, DENV-2 strain 16681, DENV-3 strain H87 or DENV-4 strains H241 or EDEN were added. […] In parallel, 25 μL of culture medium was added to the cell controls. Next, the plates were incubated for 3 days in a fully humidified incubator (37° C., 5% CO2). After 3 days, the supernatant was removed from the wells and the cells were washed twice with ice-cold PBS (˜100 μL). The cell pellets within the 96-well plates were stored at −80° C. for at least 1 day. Next, RNA was extracted using the Cells-to-CT™ lysis kit, according to the manufacture's guideline (Applied Biosystems). The cell lysates can be stored at −80° C. or immediately used in the reverse transcription step.
(§3) In preparation of the reverse transcription step, mix A (table 3A) was prepared and 7.57 μL/well was dispensed in a 96-well plate. After addition of 5 μL of the cell lysates, a five minute denaturation step at 75° C. was performed (table 3B). Afterwards, 7.43 μL of mix B was added (table 3C) and the reverse transcription step was initiated (table 3D) to generate cDNA.
(§4) Finally, a RT-qPCR mix was prepared, mix C (table 4A), dispensed in 96-well LightCycler qPCR plates to which 3 μL of cDNA was added and the qPCR was performed according to the conditions in table 4B on a LightCycler 480.
(§5) Using the LightCycler software and an in-house LIMS system, dose response curves for each compound were calculated and the half maximal effective concentration (EC50) and the half maximal cytotoxic concentration (CC50) were determined (Tables 6-9).

The subject of data set [1] is DENV-2 16681 strain labeled with eGFP. The data set is described as follows: DENV-2 antiviral assay (eGFP fluorescence, Vero cells). The note with it: SI=CC50/EC50, DENV-2 antiviral assay. The protocol: The antiviral activity of all the compounds of the invention was tested against DENV-2 16681 strain which was labeled with enhanced green fluorescent protein (eGPF). The culture medium consists of minimal essential medium supplemented with 2% of heat-inactivated fetal calf serum, 0.04% gentamycin (50 mg/mL) and 2 mM of L-glutamine. Vero cells, obtained from ECACC, were suspended in culture medium and 25 μL was added to 384-well plates (2500 cells/well), which already contain the antiviral compounds. Typically, these plates contain a 4-fold serial dilution of 9 dilution steps of the test compound at 200 times the final concentration in 100% DMSO (200 nL). In addition, each compound concentration is tested in quadruplicate (final concentration range: 25 μM-0.00038 μM). Finally, each plate contains wells which are assigned as virus controls (containing cells and virus in the absence of compound), cell controls (containing cells in the absence of virus and compound) and medium controls (containing medium in the absence of cells, virus and compounds). To the wells assigned as medium control, 25 μL of culture medium was added instead of Vero cells. Once the cells were added to the plates, the plates were incubated for 30 minutes at room temperature to allow the cells to distribute evenly within the wells. Next, the plates were incubated in a fully humidified incubator (37° C., 5% CO2) until the next day. Then, DENV-2 strain 16681, labeled with eGFP, was added at a multiplicity of infection (MOI) of 0.5. Therefore, 15 μL of virus suspension was added to all the wells containing test compound and to the wells assigned as virus control. In parallel, 15 μL of culture medium was added to the medium and cell controls. Next, the plates were incubated for 3 days in a fully humidified incubator (37° C., 5% CO2). At the day of the read out, the eGFP fluorescence was measured using an automated fluorescence microscope at 488 nm (blue laser). Using an in-house LIMS system, inhibition dose response curves for each compound were calculated and the half maximal effective concentration (EC50) was determined. Therefore, the percent inhibition (I) for every test concentration is calculated using the following formula: I=100*(ST−SCC)/(SVC−SCC); ST, SCC and SVC are the amount of eGFP signal in the test compound, cell control and virus control wells, respectively. The EC50 represents the concentration of a compound at which the virus replication is inhibited with 50%, as measured by a 50% reduction of the eGFP fluorescent intensity compared to the virus control. The EC50 is calculated using linear interpolation (Table 1).

A further data set has as its system DENV-3 strain H87. The data set is described as follows: Tetravalent RT-qPCR assay Protocol A, serotype 3. The note with it: serotype 3 H87. The method, then:
as §1, §2, §3, §4, §5
Background: Quantitative PCR measures a nucleic acid by following its amplification.

Another data set concerns DENV-1 strain TC974#666. The data set is described as follows: Tetravalent RT-qPCR assay Protocol A, serotype 1. The note with it: serotype 1 TC974#666, ratio CC50 / EC50. The protocol:
as §1, §2, §3, §4, §5

Consider `COc1cc(NC(C(=O)c2c[nH]c3cc(F)ccc23)c2ccc(Cl)cc2OC)cc(OCCO)c1` (single isomer, unassigned) [Compound 1A, 2-(4-chloro-2-methoxyphenyl)-1-(6-fluoro-1H-indol-3-yl)-2-((3-(2-hydroxyethoxy)-5-methoxyphenyl)amino)ethanone], for which the SI is reported as 13 in the data set with DENV-4 strain H241, 5395 in data set [1], 28 in the data set on DENV-3 strain H87 and 530 with DENV-1 strain TC974#666.
As to `COc1cc(NC(C(=O)c2c[nH]c3c(C)c(F)ccc23)c2ccc(Cl)cc2OC)cc(OCCO)c1` (single isomer, unassigned) [Compound 2A, 2-(4-chloro-2-methoxyphenyl)-1-(6-fluoro-7-methyl-1H-indol-3-yl)-2-((3-(2-hydroxyethoxy)-5-methoxyphenyl)amino)ethanone], the SI is recorded as 7 with DENV-4 strain H241, 5166 in data set [1], 76 with DENV-3 strain H87 and 628 with DENV-1 strain TC974#666.
On to `COc1cc(NC(C(=O)c2c[nH]c3c(C)c(Cl)ccc23)c2ccc(Cl)cc2OC)cc(OCCO)c1` (single isomer, unassigned) [Compound 3A, 2-(4-chloro-2-methoxyphenyl)-1-(6-chloro-7-methyl-1H-indol-3-yl)-2-((3-(2-hydroxyethoxy)-5-methoxyphenyl)amino)ethanone], for which the SI in the data set on DENV-4 strain H241 is reported as 17; in data set [1], 20070; in the data set with DENV-3 strain H87, 104; in the data set on DENV-1 strain TC974#666, 721.
With `COc1cc(NC(C(=O)c2c[nH]c3cc(Cl)ccc23)c2ccc(Cl)cc2OC)cc(OCCO)c1` (single isomer, unassigned) [Compound 4A, 1-(6-chloro-1H-indol-3-yl)-2-(4-chloro-2-methoxyphenyl)-2-((3-(2-hydroxyethoxy)-5-methoxyphenyl)amino)ethanone], the SI in the data set with DENV-4 strain H241 is recorded as 10; in data set [1], 6965; in the data set with DENV-3 strain H87, 52; with DENV-1 strain TC974#666, 447.
For the compound `COc1cc(NC(C(=O)c2c[nH]c3cc(OC)ccc23)c2ccc(Cl)cc2OC)cc(OCCO)c1` (single isomer, unassigned) [Compound 5A, 2-(4-chloro-2-methoxyphenyl)-2-((3-(2-hydroxyethoxy)-5-methoxyphenyl)amino)-1-(6-methoxy-1H-indol-3-yl)ethanone], the SI was found to be 13 with DENV-4 strain H241, 7057 in data set [1], 42 in the data set with DENV-3 strain H87 and 392 with DENV-1 strain TC974#666.
As to `COc1cc(NC(C(=O)c2c[nH]c3cc(OC)c(C)cc23)c2ccc(Cl)cc2OC)cc(OCCO)c1` (single isomer, unassigned) [Compound 6A, 2-(4-chloro-2-methoxyphenyl)-2-((3-(2-hydroxyethoxy)-5-methoxyphenyl)amino)-1-(6-methoxy-5-methyl-1H-indol-3-yl)ethanone], the SI in the data set on DENV-4 strain H241 worked out at 25; in data set [1], 6520; with DENV-3 strain H87 it was 106; in the data set on DENV-1 strain TC974#666, 1348.
As to `COc1cc(NC(C(=O)c2c[nH]c3cc(OC)c(F)cc23)c2ccc(Cl)cc2OC)cc(OCCO)c1` (single isomer, unassigned) [Compound 7A, 2-(4-chloro-2-methoxyphenyl)-1-(5-fluoro-6-methoxy-1H-indol-3-yl)-2-((3-(2-hydroxyethoxy)-5-methoxyphenyl)amino)ethanone], the SI in the data set on DENV-4 strain H241 came out at 12; in data set [1], 5569; with DENV-3 strain H87, 66; in the data set on DENV-1 strain TC974#666, 282.
In the case of `COc1cc(NC(C(=O)c2c[nH]c3c(C)cc(F)cc23)c2ccc(Cl)cc2OC)cc(OCCO)c1` (single isomer, unassigned) [Compound 8A, 2-(4-chloro-2-methoxyphenyl)-1-(5-fluoro-7-methyl-1H-indol-3-yl)-2-((3-(2-hydroxyethoxy)-5-methoxyphenyl)amino)ethanone], the SI with DENV-4 strain H241 came out at 11; in data set [1], 3457; with DENV-3 strain H87 it was 47; in the data set with DENV-1 strain TC974#666, 368.
As to `COc1cc(NC(C(=O)c2c[nH]c3cc(F)c(F)cc23)c2ccc(Cl)cc2OC)cc(OCCO)c1` (single isomer, unassigned) [Compound 9A, 2-(4-chloro-2-methoxyphenyl)-1-(5,6-difluoro-1H-indol-3-yl)-2-((3-(2-hydroxyethoxy)-5-methoxyphenyl)amino)ethanone], in the data set on DENV-1 strain TC974#666, the SI is 934.
As for `COc1cc(NC(C(=O)c2c[nH]c3c(F)cc(C)cc23)c2ccc(Cl)cc2OC)cc(OCCO)c1` (single isomer, unassigned) [Compound 10A, 2-(4-chloro-2-methoxyphenyl)-1-(7-fluoro-5-methyl-1H-indol-3-yl)-2-((3-(2-hydroxyethoxy)-5-methoxyphenyl)amino)ethanone], the SI was 8 with DENV-4 strain H241, 1416 in data set [1], 47 in the data set with DENV-3 strain H87 and 290 in the data set on DENV-1 strain TC974#666.
For `COc1cc(NC(C(=O)c2c[nH]c3c(F)c(F)ccc23)c2ccc(Cl)cc2OC)cc(OCCO)c1` (single isomer, unassigned) [Compound 11B, 2-(4-chloro-2-methoxyphenyl)-1-(6,7-difluoro-1H-indol-3-yl)-2-((3-(2-hydroxyethoxy)-5-methoxyphenyl)amino)ethanone] the same measures were 7, 3526, 48 and 202.
